Experimental data reported in patent publication US20220267415A1.

Target: B.1.1.529 Omicron variant spike protein on recombinant USA-WA1/2020 virus (SARS-CoV-2)
Test: cell-based or functional assay

Substance: IgG antibody carrying the VH and VL regions of Sotrovimab (S309)
- Neutralization EC50: 0.73 µg/mL
